Reference: article PMC3568044
For some assays here: The exact form of at least one protein or probe is not confirmed. For some assays here: At least one verdict was read from the data and is not stated in words by the source.

Legend:
[1] = target: MtrR-MBP (Neisseria meningitidis M7) (UniProt Q6RV06); assay: EMSA; conditions: EMSA: 10 mM Tris-HCl pH 7.5, 0.5 mM DTT, 0.5 mM EDTA, 1 mM MgCl2, 50 mM NaCl, 0.05 ug/mL poly(dI-dC), 30 uL, room temperature 30 min; 6% PAGE at 4 C; recombinant protein; residues 1-210; label: 32P 5' end; probe letters rebuilt from the primers and the genome
[2] = system: FarR-MBP (Neisseria meningitidis M7); assay: EMSA; conditions: at least three complexes; EMSA: 10 mM Tris-HCl pH 7.5, 0.5 mM DTT, 0.5 mM EDTA, 1 mM MgCl2, 50 mM NaCl, 0.05 ug/mL poly(dI-dC), 30 uL, room temperature 30 min; 6% PAGE at 4 C; recombinant protein; residues 1-146; label: 32P 5' end; probe letters rebuilt from the primers and the genome
[3] = target: MtrR-MBP (Neisseria meningitidis M7) (UniProt Q6RV06); assay: competition with a labelled probe; conditions: unlabeled nadA effective at 25x vs labeled nadA, 1.0 ug MtrR-MBP; EMSA: 10 mM Tris-HCl pH 7.5, 0.5 mM DTT, 0.5 mM EDTA, 1 mM MgCl2, 50 mM NaCl, 0.05 ug/mL poly(dI-dC), 30 uL, room temperature 30 min; 6% PAGE at 4 C; recombinant protein; residues 1-210; label: 32P 5' end; probe letters rebuilt from the primers and the genome
[4] = system: FarR-MBP (Neisseria meningitidis M7); assay: competition with a labelled probe; conditions: unlabeled nadA 25-100x vs labeled nadA, 0.5 ug FarR-MBP; EMSA: 10 mM Tris-HCl pH 7.5, 0.5 mM DTT, 0.5 mM EDTA, 1 mM MgCl2, 50 mM NaCl, 0.05 ug/mL poly(dI-dC), 30 uL, room temperature 30 min; 6% PAGE at 4 C; recombinant protein; residues 1-146; label: 32P 5' end; probe letters rebuilt from the primers and the genome
[5] = system: FarR-MBP (Neisseria meningitidis M7); assay: DNase I footprinting; conditions: three sites incl. -10 promoter and TAAA repeat regions, data not shown; DNase I: protein with DNA 15 min at 37 C; recombinant protein; residues 1-146; label: 32P 5' end; probe letters rebuilt from the primers and the genome

Measured: binding result

ATGCATGCTCATTACCTTTGTGAGTGGATAAAAAATGGGGCGGAAATCTTTTGTAAGTATTTTATCCCCACCAAGTTTGTTTACATATTAAAGTATATATGAAAGGAGGCATATATACAATACATTGTCGCAATTTATTTATTTATTTATTTATTTATTTATTTATTTATTTATTTATTTATTTATTTATTTAATTCTTGCAGTTAGGTAGTTCGGCATTAATATCTGTTAATATGTGCATATTATGCTGATGTCAATTCTGCCGGTGTCGTGTCTTAATTTTGTCAGGATATGGGTTGCCGTCTGAATGTTCAGACGGCCTTTTTGTCGGATTTAGATATGGTGGATAACCAATTTTTTGCCTTCGTAATCGAGGACGTCGAC (double strand) [nadA promoter]
binds: all assays above
